Test results: patent US20230024461A1, “METHODS FOR DUAL DNA/PROTEIN TAGGING OF OPEN CHROMATIN” (Beth Israel Deaconess Medical Center, Inc., priority 2019, published 2023)

Tested on: HEK293T nuclei
Experiment: iDAPT-MS quantitative mass spectrometry
Parameters: species or system human

B1: TP3: Tn5 transposase-AEAAAKEAAAKA linker-APEX2 peroxidase fusion, C-terminal FLAG; amino acid SEQ ID NO: 27 (protein)
chain: MITSALHRAADWAKSVFSSAALGDPRRTARLVNVAAQLAKYSGKSITISSEGSKAMQEGAYRFIRNPNVSAEAIRKAGAMQTVKLAQEFPELLAIEDTTSLSYRHQVAEELGKLGSIQDKSRGWWVHSVLLLEATTFRTVGLLHQEWWMRPDDPADADEKESGKWLAAAATSRLRMGSMMSNVIAVCDREADIHAYLQDKLAHNERFVVRSKHPRKDVESGLYLYDHLKNQPELGGYQISIPQKGVVDKRGKRKNRPARKASLSLRSGRITLKQGNITLNAVLAEEINPPKGETPLKWLLLTSEPVESLAQALRVIDIYTHRWRIEEFHKAWKTGAGAERQRMEEPDNLERMVSILSFVAVRLLQLRESFTPPQALRAQGLLKEAEHVESQSAETVLTPDECQLLGYLDKGKRKRKEKAGSLQWAYMAIARLGGFMDSKRTGIASWGALWEGWEALQSKLDGFLAAKDLMAQGIKIAEAAAKEAAAKAGKSYPTVSADYQDAVEKAKKKLRGFIAEKRCAPLMLRLAFHSAGTFDKGTKTGGPFGTIKHPAELAHSANNGLDIAVRLLEPLKAEFPILSYADFYQLAGVVAVEVTGGPKVPFHPGREDKPEPPPEGRLPDPTKGSDHLRDVFGKAMGLTDQDIVALSGGHTIGAAHKERSGFEGPWTSNPLIFDNSYFTELLSGEKEGLLQLPSDKALLSDPVFRPLVDKYAADEDAFFADYAEAHQKLSELGFADADYKDDDDK
modifications: C-terminal FLAG
significant proteins enriched versus APEX2 alone (HEK293T nuclei, FDR threshold of 5%): 1,450 proteins
CisBP transcription factors significantly enriched (HEK293T, iDAPT-MS): 79 transcription factors
